Measurements published in ChEMBL document CHEMBL3124763, “Optimization of furin inhibitors to protect against the activation of influenza hemagglutinin H5 and Shiga toxin” (J Med Chem, 2014).

Tests used:
[1] = Half life in cell culture medium by HPLC analysis in presence of FBS; conditions: cattle
[2] = Drug degradation in human DU145 cell culture medium assessed as deltaRT formation at 20 ug after 6 hrs by MALDI-TOF analysis; conditions: du-145, 6 h
[3] = Drug degradation in human DU145 cell culture medium assessed as deltaKRT formation at 20 ug after 6 hrs by MALDI-TOF analysis; conditions: du-145, 6 h
[4] = Drug degradation in human DU145 cell culture medium assessed as Ac-RARRKKR formation at 20 ug after 6 hrs by MALDI-TOF analysis; conditions: du-145, 6 h
[5] = Drug degradation in human DU145 cell culture medium assessed as deltaKKRT formation at 20 ug after 6 hrs by MALDI-TOF analysis; conditions: du-145, 6 h

CC(=O)N[C@@H](CCCNC(=N)N)C(=O)N[C@@H](C)C(=O)N[C@@H](CCCNC(=N)N)C(=O)N[C@@H](CCCNC(=N)N)C(=O)N[C@@H](CCCNC(=N)N)C(=O)N[C@@H](CCCCN)C(=O)N[C@@H](CCCCN)C(=O)N[C@@H](CCCNC(=N)N)C(=O)N[C@H](C(N)=O)[C@@H](C)O
t1/2 [1]: 4 h
Stability [2]: Unstable
Stability [3]: Unstable
Stability [4]: Unstable
Stability [5]: Unstable
